“And” between values parts separate entries of the source, which are not always exact repeats. Equal values may be shown once.

In the series the test system is B16 melanoma cells. The series is described as follows: Anti-melanogenesis assay (melanin content). In kind it is cell-based, mouse. As to the method: This assay was performed as described by Arung et al.. The mouse melanoma cell line B16 was obtained from the Riken Bioresource Center Cell Bank (Tsukuba, Japan). The B16 melanoma cells were maintained in Eagle’s Minimal Essential Medium (EMEM, Nissui Chemical, Tokyo) supplemented with 10% (v/v) fetal bovine serum (FBS; Gibco, Carlsbad, CA, USA) and 0.09 mg/mL theophylline (Sigma-Aldrich, St. Louis, MO, USA). […] After 24 h, test samples were dissolved in DMSO (<0.2% per well) and sample solution were added to each well. Arbutin (Tokyo Kasei Kogyo, Tokyo) was used as a positive control. The cells were incubated for an additional 48 h, and then the medium was replaced with fresh medium containing each sample again. After 24 h, the melanin content and the cell viability were measured using a microplate reader (BioTek-ELX800, BioTek Instruments, Winooski, VT, USA) at 405 nm and 570 nm, respectively. Cell viability was measured using the MTT (3-(4,5-dimethylthiazol-2-yl)-2,5-diphenyltetrazolium bromide) method.
Consider `COC(=O)[C@]12CCC(C)(C)C[C@@H]1C1=CC[C@@H]3[C@@]4(C)C[C@@H](O)[C@H](O)C(C)(C)C4CC[C@@]3(C)[C@]1(C)CC2` (some centres unmarked) [Compound 5, Methyl maslinate], for which the “S.I (selectivity index, CC50 value/IC50 value)” value was > 1.0 and 1.4.

Consider `COC(=O)[C@]12CC[C@@H](C)[C@H](C)[C@H]1C1=CC[C@@H]3[C@@]4(C)C[C@@H](O)[C@H](O)C(C)(C)[C@@H]4CC[C@@]3(C)[C@]1(C)CC2` [Compound 6, methyl corosolate], for which the “S.I (selectivity index, CC50 value/IC50 value)” value was > 1.0 and 1.2.

For `C[C@@H]1CC[C@]2(C(=O)O)CC[C@]3(C)C(=CC[C@@H]4[C@@]5(C)C[C@@H](O)[C@H](O)C(C)(C)[C@@H]5CC[C@]43C)[C@@H]2[C@]1(C)O` [Compound 11, tormentic acid], the “S.I (selectivity index, CC50 value/IC50 value)” value was > 1.0 and 1.3.

Take `C[C@H]1[C@H](C)CC[C@]2(C(=O)O)CC[C@]3(C)C(=CC[C@@H]4[C@@]5(C)CCC(=O)C(C)(C)[C@@H]5CC[C@]43C)[C@H]12` [Compound 13, 3-oxours-12-en-28-oic acid]: the “S.I (selectivity index, CC50 value/IC50 value)” value amounted to 0.5.

As for `C[C@@H]1CC[C@]2(C(=O)O)CC[C@]3(C)C(=CC[C@@H]4[C@@]5(C)CCC(=O)C(C)(C)[C@@H]5[C@H](O)C[C@]43C)[C@@H]2[C@]1(C)O` [Compound 14, 6β,19-dihydroxyurs-12-en-3-oxo-28-oic acid], the “S.I (selectivity index, CC50 value/IC50 value)” value is 0.7.

The values above are taken from publication PMC5454942, “The Potential of Triterpenoids from Loquat Leaves (Eriobotrya japonica) for Prevention and Treatment of Skin Disorder” (International Journal of Molecular Sciences, 2017).
